# Share of PSTVd loop 15 variants by leaf site

The pool varies loop 15 of the PSTVd intermediate strain in the pattern GGAAACCGNNNNNNC; wild type is GGAAACCGCUACUAC (upper and lower strand joined, each 5' to 3', the first 7 letters being the upper strand, closing pairs included).

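A pool of all variants was put on leaves of three Nicotiana benthamiana plants. Progeny were sequenced from the inoculated region (day 5), the margin of the inoculated leaf (day 10) and systemic leaves (day 12).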

Values are reads per thousand in the sample; higher means more abundant, 0 means not found. Each value is the mean of three plants. "Pool" is the share in the plasmid pool used as inoculum, on the same scale. The inoculated region was read from the minus strand, the other sites from the plus strand. For reference, wild type rose from 33.9 per thousand in the pool to 202, 200, 159 (inoculated region), 724, 746, 710 (leaf margin) and 856, 883, 880 (systemic leaves). Sequences that differ at fixed positions probably stem from PCR or sequencing errors, and defective variants can be carried along by functional ones. With 43,870-66,106 reads a sample, very low values are single reads.

- GGAAACCGGUCAGGC (pool 0.192) -> inoculated region 0.149; leaf margin 0.0141; systemic leaves 0
- GGAAACCGCCCUUAC (pool 0.208) -> inoculated region 0.432; leaf margin 0.117; systemic leaves 0.0711
- GGAAACCGAUUUAGC (pool 0.304) -> inoculated region 0.112; leaf margin 0.0128; systemic leaves 0
- GGAAACCGACUCCCC (pool 0.288) -> inoculated region 0.0928; leaf margin 0.00742; systemic leaves 0
- GGAAACCGCUUAAAC (pool 0.208) -> inoculated region 0.111; leaf margin 0.0108; systemic leaves 0
- GGAAACCGGGACUCC (pool 0.304) -> inoculated region 0.0848; leaf margin 0.00668; systemic leaves 0
- GGAAACCGAAGAAGC (pool 0.192) -> inoculated region 0.105; leaf margin 0.00668; systemic leaves 0
- GGAAACCGCGGGAUC (pool 0.224) -> inoculated region 0.108; leaf margin 0; systemic leaves 0
- GGAAACCGGCUUCUC (pool 0.224) -> inoculated region 0.0911; leaf margin 0.0148; systemic leaves 0
- GGAAACCGCUUUGUC (pool 0.224) -> inoculated region 0.250; leaf margin 0.00668; systemic leaves 0
- GGAAACCGGUGGUAC (pool 0.240) -> inoculated region 0.307; leaf margin 0.123; systemic leaves 0.0391
- GGAAACCGUCGACCC (pool 0.240) -> inoculated region 0.159; leaf margin 0.00668; systemic leaves 0
- GGAAACCGCAGAACC (pool 0.368) -> inoculated region 0.0407; leaf margin 0.00742; systemic leaves 0
- GGAAACCGAAAAGGC (pool 0.0960) -> inoculated region 0.117; leaf margin 0; systemic leaves 0
- GGAAACCGCAUCCAC (pool 0.128) -> inoculated region 0.109; leaf margin 0; systemic leaves 0.00537
- GGAAACCGACUAUCC (pool 0.192) -> inoculated region 0.0750; leaf margin 0.00668; systemic leaves 0
- GGAAACCGGGCUGGC (pool 0.224) -> inoculated region 0.0991; leaf margin 0.0175; systemic leaves 0
- GGAAACCGAUCGUGC (pool 0.224) -> inoculated region 0.309; leaf margin 0.134; systemic leaves 0.0711
- GGAAACCGUCGGGAC (pool 0.208) -> inoculated region 0.0911; leaf margin 0.0134; systemic leaves 0
- GGAAACCGAGUCCGC (pool 0.240) -> inoculated region 0.0806; leaf margin 0.00668; systemic leaves 0
- GGAAACCGCAUAGAC (pool 0.240) -> inoculated region 0.0954; leaf margin 0.0134; systemic leaves 0.00760
- GGAAACCGUUCGGAC (pool 0.320) -> inoculated region 0.359; leaf margin 0.133; systemic leaves 0.0563
- GGAAACCGCUAACAC (pool 0.144) -> inoculated region 0.337; leaf margin 0.0902; systemic leaves 0.0622
- GGAAACCGCUGACAC (pool 0.240) -> inoculated region 0.103; leaf margin 0.0148; systemic leaves 0

Extract of 2 entries:

- GGAAACCGACUCCCC (pool 0.288): inoculated region 0.0928; leaf margin 0.00742; systemic leaves 0
- GGAAACCGACUAUCC (pool 0.192): inoculated region 0.0750; leaf margin 0.00668; systemic leaves 0

From the data files of Wu et al. 2024, doi:10.1371/journal.ppat.1012142.